Data as given in PubChem BioAssay AID1224833 (University of Georgia, 2016).
Test: 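Human genes whose knock-down alters rotavirus replication in monkey cells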 (primary screen). Cells: monkey MA104 kidney cells. Reagent: siRNA pool against human genes, 50 nM. Time to read-out: 48 h knock-down before infection; read 24 h after infection. Treatment: infection with rotavirus strain RV3 two days after transfection; infectious dose for this stage not given. Detection: 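z-score of rotavirus antigen signal per well, from a fluorescent immunoassay, relative to non-targeting control wells on the same plate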. Reading the numbers: z-score vs non-targeting control: higher = more rotavirus replication than with non-targeting control. Active means: In these data the active calls have z-score vs non-targeting control at about -1 or lower, or at about 1 or higher. Meaning of the calls: active = z-score beyond 1 either way; inactive = z-score within 1 of zero.
Shown is an unselected part of about 12,000 deposited reagents. About 5,600 of them (46%) were called active. 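Active calls cover z-scores past 1 in both directions, so they include lowered as well as raised rotavirus replication.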

For CASP8 [SID329573014], what does the deposit list?
z-score vs non-targeting control: 0.725; Outcome: inactive

What is on record for NOMO1 [SID329577986]?
z-score vs non-targeting control: -1.44; Outcome: active

For H4C11 [SID329576080], how do the results read?
z-score vs non-targeting control: -1.89; Outcome: active

For SPON2 [SID329577143], what was measured?
z-score vs non-targeting control: -1.18; Outcome: active

With VIPR1 [SID329575796], how do the results read?
z-score vs non-targeting control: -1.16; Outcome: active

What is on record for ZKSCAN4 [SID329584283]?
z-score vs non-targeting control: -0.762; Outcome: inactive

With NIBAN3 [SID329583389], what was measured?
z-score vs non-targeting control: -0.223; Outcome: inactive

With DCBLD2 [SID329582680], how do the results read?
z-score vs non-targeting control: -1.26; Outcome: active

With YOD1 [SID329579720], how do the results read?
z-score vs non-targeting control: 1.29; Outcome: active

With PUS7 [SID329579305], what does the deposit list?
z-score vs non-targeting control: 2.76; Outcome: active

For ABHD18 [SID329581162], what does the deposit list?
z-score vs non-targeting control: 1.72; Outcome: active

How did the screen score TYR [SID329575746]?
z-score vs non-targeting control: -2.55; Outcome: active

For LRP2BP [SID329579879], what was measured?
z-score vs non-targeting control: 0.794; Outcome: inactive

How did the screen score SFR1 [SID329582383]?
z-score vs non-targeting control: -1.61; Outcome: active

What did the screen give for CT45A6 [SID329584656]?
z-score vs non-targeting control: 0.0483; Outcome: inactive

Which result is listed for XPA [SID329575829]?
z-score vs non-targeting control: 0.822; Outcome: inactive

With AP3S2 [SID329577047], what does the deposit list?
z-score vs non-targeting control: 0.475; Outcome: inactive

How did the screen score TNNI3 [SID329575686]?
z-score vs non-targeting control: -0.552; Outcome: inactive

With ARR3 [SID329572825], what was measured?
z-score vs non-targeting control: -0.234; Outcome: inactive

For QTRT2 [SID329580959], what does the deposit list?
z-score vs non-targeting control: -0.121; Outcome: inactive

How did the screen score DCBLD1 [SID329583954]?
z-score vs non-targeting control: 0.205; Outcome: inactive

What did the screen give for AP1AR [SID329579721]?
z-score vs non-targeting control: 1.03; Outcome: active

For GSKIP [SID329579107], what was measured?
z-score vs non-targeting control: -0.701; Outcome: inactive

For SPIC [SID329582430], what does the deposit list?
z-score vs non-targeting control: -2.22; Outcome: active

For MLLT1 [SID329574454], what was measured?
z-score vs non-targeting control: 0.651; Outcome: inactive

What did the screen give for LRRC3B [SID329582293]?
z-score vs non-targeting control: -0.583; Outcome: inactive

Which result is listed for CMTM6 [SID329579464]?
z-score vs non-targeting control: -1.4; Outcome: active

For COG2 [SID329577653], how do the results read?
z-score vs non-targeting control: 0.115; Outcome: inactive

With PRSS3 [SID329574957], how do the results read?
z-score vs non-targeting control: 0.542; Outcome: inactive

With MLN [SID329574453], what does the deposit list?
z-score vs non-targeting control: -2.17; Outcome: active

What is on record for C22orf23 [SID329581680]?
z-score vs non-targeting control: -0.514; Outcome: inactive

Which result is listed for MYO1G [SID329580542]?
z-score vs non-targeting control: 1.04; Outcome: active

With PLCD1 [SID329574855], how do the results read?
z-score vs non-targeting control: 1.35; Outcome: active

What is on record for NCKAP5 [SID329584127]?
z-score vs non-targeting control: 0.354; Outcome: inactive

Which result is listed for EMD [SID329573530]?
z-score vs non-targeting control: -1.37; Outcome: active

With ZFR2 [SID329577878], how do the results read?
z-score vs non-targeting control: -2.1; Outcome: active

What did the screen give for NR2C2AP [SID329582549]?
z-score vs non-targeting control: -1.79; Outcome: active

Which result is listed for CABP2 [SID329579082]?
z-score vs non-targeting control: -0.246; Outcome: inactive

Which result is listed for MRPS35 [SID329580473]?
z-score vs non-targeting control: 0.618; Outcome: inactive

How did the screen score FUCA2 [SID329573693]?
z-score vs non-targeting control: -0.674; Outcome: inactive

What did the screen give for SEMA4G [SID329580366]?
z-score vs non-targeting control: -2.28; Outcome: active

How did the screen score PPP1R13L [SID329577388]?
z-score vs non-targeting control: -0.401; Outcome: inactive

What is on record for EPN3 [SID329579536]?
z-score vs non-targeting control: 0.157; Outcome: inactive

With TMEM260 [SID329579463], what was measured?
z-score vs non-targeting control: -0.586; Outcome: inactive

What did the screen give for OR51V1 [SID329583813]?
z-score vs non-targeting control: 0.606; Outcome: inactive

With IL6 [SID329574138], what was measured?
z-score vs non-targeting control: -0.711; Outcome: inactive

How did the screen score MACROD1 [SID329578632]?
z-score vs non-targeting control: -0.247; Outcome: inactive

With KLLN [SID329584768], what was measured?
z-score vs non-targeting control: 0.192; Outcome: inactive

Which result is listed for NOP56 [SID329577218]?
z-score vs non-targeting control: -0.618; Outcome: inactive

For PXMP2 [SID329575029], how do the results read?
z-score vs non-targeting control: -0.194; Outcome: inactive

What did the screen give for TNNT3 [SID329575689]?
z-score vs non-targeting control: 1.23; Outcome: active

How did the screen score NRAS [SID329574671]?
z-score vs non-targeting control: -1.96; Outcome: active

With AGT [SID329572727], how do the results read?
z-score vs non-targeting control: 0.537; Outcome: inactive

What did the screen give for FMO4 [SID329573674]?
z-score vs non-targeting control: -1.97; Outcome: active

What did the screen give for ZNF428 [SID329582541]?
z-score vs non-targeting control: -1.06; Outcome: active

Which result is listed for COX8C [SID329584100]?
z-score vs non-targeting control: -1.07; Outcome: active

Which result is listed for CSMD2 [SID329582217]?
z-score vs non-targeting control: -0.959; Outcome: inactive

What did the screen give for E2F7 [SID329582870]?
z-score vs non-targeting control: 0.681; Outcome: inactive

With MYL12A [SID329577281], what does the deposit list?
z-score vs non-targeting control: 0.727; Outcome: inactive

For BICC1 [SID329581142], what was measured?
z-score vs non-targeting control: -0.637; Outcome: inactive

Taken from above.
For “Outcome”, AGT [SID329572727] has inactive
Under “z-score vs non-targeting control”, PXMP2 [SID329575029] shows -0.194
NR2C2AP [SID329582549], z-score vs non-targeting control = -1.79
For “z-score vs non-targeting control”, LRRC3B [SID329582293] shows -0.583
